A mixed list of measured activities; the numbers were collected in NIAID ChemDB.

Shared fields: whole-cell or culture tests; species: HIV-1; read-out: EC50

Neighbouring rows are from separate reports. a–b is a range or a potency band. Blank or dashed fields: not listed here. ECn: concentration that inhibits the pathogen or its effect by n%.

SMILES	cell line	strain or isolate	changes	result
N#CC1=C[C@@H](n2cnc3c(=O)[nH]cnc32)O[C@H]1CO	PBMC	-	-	50 µM
Nc1ccn([C@H]2C=C(F)[C@@H](CO)O2)c(=O)n1	PBMC	-	-	0.94 µM
N#CC1=C[C@@H](n2ccc(N)nc2=O)O[C@H]1CO	PBMC	-	-	>100 µM
CNc1n[nH]c2ccc(CN3C(=O)N(Cc4ccc5[nH]nc(NC)c5c4)[C@H](Cc4ccccc4)[C@H](O)[C@@H](O)[C@H]3Cc3ccccc3)cc12	MT-2	RF	-	<0.0279 µM
COC[C@@H](c1ccc(C(F)(F)F)cc1)N1CCN(C2(C)CCN(C(=O)c3c(C)ncnc3C)CC2)C[C@@H]1C	TZM-bl	S	G514V V535M	0.0052 µM
NC1=NS(=O)(=O)N(Cc2ccccc2)c2c1ncn2[C@@H]1CS[C@@H](CO)O1	MT-4	RF	-	>100 µg/mL
Cc1cn([C@@H]2OC3CN[C@@]4(OCC(C)C)CS(=O)(=O)O[C@@]34[C@H]2O[Si](C)(C)C(C)(C)C)c(=O)[nH]c1=O	MT-4	IIIB	-	5.2 µM
O=C1c2c(O)c(O)cc(S(=O)(=O)NCCCCNS(=O)(=O)c3cc(O)c(O)c4c3CN(Cc3ccc(F)c(Cl)c3)C4=O)c2CN1Cc1ccc(F)c(Cl)c1	-	-	-	4.9 µM
COc1cc2ccnc3c2c(c1OC(=O)c1ccc(OC(F)(F)F)cc1)N(C)C=C3	-	-	-	2.3 µM
N#CC1=C[C@@H](n2cnc3c(=O)[nH]c(N)nc32)O[C@H]1CO	PBMC	-	-	28 µM
Nc1cn([C@H]2CC[C@@H](CO)O2)c(=O)nc1N	MT-4	-	-	>100 µM
CCCCCCN1C(=O)N(Cc2ccc3[nH]nc(N)c3c2)[C@H](Cc2ccccc2)[C@H](O)[C@@H](O)[C@H]1Cc1ccccc1	MT-2	RF	-	<0.756 µM
Cc1cn([C@@H]2O[C@@H]3CN[C@@]4(OCC(C)(C)C)CS(=O)(=O)O[C@@]34[C@H]2O[Si](C)(C)C(C)(C)C)c(=O)[nH]c1=O	CEM	IIIB	-	<10 µM
CC[C@H](C)[C@H](NC(=O)[C@@H](C[C@H](O)[C@H](CC1CCCCC1)NC(=O)CC(C)(C)C)C(C)C)C(=O)NCc1ccccn1	PBMC	-	-	0.1–1 µM
Nc1cn([C@@H]2CC[C@@H](CO)O2)c(=O)[nH]c1=O	MT-4	-	-	>100 µM
CC(C)CN(C[C@@H](O)[C@H](Cc1ccccc1)NC(=O)[C@@H](NC(=O)C1CCCN1)C(C)(C)C)S(=O)(=O)c1ccc2c(c1)OCO2	CEM + CEM-SS	-	-	0.012 µM
Nc1ccn([C@H]2O[C@@H](CO)C=C2F)c(=O)n1	PBMC	-	-	0.51 µM
COc1cccc(C(=O)Oc2c(OC)cc3ccnc4c3c2N(C)C=C4)c1	-	-	-	33.7 µM
Nc1cn([C@@H]2C[C@H](O)[C@@H](CO)O2)c(=O)nc1N	MT-4	-	-	>100 µM
CC(C)=CCOC1(C(F)(F)F)OC(=O)Nc2ccc(Cl)cc21	-	-	-	<0.00268 µM
O=C1C=CN([C@H]2CS[C@@H](CO)O2)S(=O)(=O)N1	MT-4	RF	-	>100 µg/mL
O=C1Nc2ccc(F)c(F)c2C(OCC=C(Cl)Cl)(C(F)(F)F)O1	-	-	RT-K103N	<0.183 µM
N#C[C@@H]1[C@H](O)[C@@H](n2cnc3c(=O)[nH]c(N)nc32)O[C@H]1CO	PBMC	-	-	>100 µM
O=C1Nc2ccc(F)c(F)c2C(C#Cc2ccsc2)(C(F)(F)F)O1	-	-	-	<0.00234 µM
CCCCc1ccc(C(=O)Oc2c(OC)cc3ccnc4c3c2N(C)C=C4)cc1	-	-	-	3.8 µM
NC1=NS(=O)(=O)N(Cc2ccccc2)c2ncn([C@H]3CS[C@@H](CO)O3)c21	MT-4	RF	-	>100 µg/mL
Cc1cn([C@@H]2C=C(C#N)[C@H](CO)O2)c(=O)[nH]c1=O	PBMC	-	-	38 µM
O=C1Nc2ccc(Cl)cc2C(C#Cc2ccsc2)(C(F)(F)F)O1	-	-	RT-K103N	<0.3219 µM
N#CC1=C[C@@H](n2ccc(=O)[nH]c2=O)O[C@H]1CO	PBMC	-	-	21.7 µM
O=C1C=CN([C@@H]2CS[C@@H](CO)O2)S(=O)(=O)N1	MT-4	RF	-	>100 µg/mL
COc1cc2ccnc3c2c(c1OC(=O)c1ccc(F)cc1)N(C)C=C3	-	-	-	10.9 µM
O=C1c2c(O)c(O)cc(S(=O)(=O)NCCCCCNS(=O)(=O)c3cc(O)c(O)c4c3CN(Cc3ccc(F)c(Cl)c3)C4=O)c2CN1Cc1ccc(F)c(Cl)c1	-	-	-	5.3 µM
COc1cc2ccnc3c2c(c1OC(=O)c1cccc(C)c1)N(C)C=C3	-	-	-	9.9 µM
O=C1Nc2ccc(Cl)cc2C(OCC=C(Cl)Cl)(C(F)(F)F)O1	-	-	-	<0.0095 µM
Nc1n[nH]c2ccc(CN3C(=O)N(CC4CCC4)[C@H](Cc4ccccc4)[C@H](O)[C@@H](O)[C@H]3Cc3ccccc3)cc12	MT-2	RF	PR-S184V	<0.53 µM
CC(=O)N[C@H]1C(=O)Nc2ccc(Cl)cc2[C@@]1(C#CC1CC1)C(F)(F)F	MT-2	RF	-	<0.917 µM
COc1ccc(C(=O)O[C@@H](c2cc(O)c(OC)c(OC)c2)[C@H](C)C(C)O)cc1OC	C8166	-	-	4.14 µg/mL
O=C1Nc2ccc(Cl)cc2[C@@](C#CC2CC2)(C(F)(F)F)[C@H]1OCc1ccncc1	MT-2	-	RT-L100I K103N	<4.83 µM
Nc1ccn([C@H]2C[C@@H](CO)[C@H](O)[C@@H]2O)c(=O)n1	PBMC	-	-	53 µM
Nc1nc(=O)n([C@H]2C[C@H](O)[C@@H](CO)O2)cc1[N+](=O)[O-]	MT-4	-	-	>100 µM
Nc1cccc(CO[C@H]2C(=O)Nc3ccc(Cl)cc3[C@@]2(C#CC2CC2)C(F)(F)F)c1	MT-2	RF	-	<0.138 µM
O=C1Nc2ccc(F)cc2C(C#Cc2ccco2)(C(F)(F)F)O1	-	-	RT-K103N	<0.3293 µM
O=S(=O)(O)c1cc(N=C=S)ccc1/C=C/c1ccc(N=C=S)cc1S(=O)(=O)O	JM	-	-	≥30 µM
O=C1Nc2ccc(F)c(F)c2C(C#Cc2cccs2)(C(F)(F)F)O1	-	-	-	<0.00223 µM
Cc1cn([C@@H]2O[C@@H]3CN[C@@]4(C(N)=O)CS(=O)(=O)O[C@@]34[C@H]2O[Si](C)(C)C(C)(C)C)c(=O)[nH]c1=O	CEM	IIIB	-	>125 µM
NC1=NS(=O)(=O)N([C@H]2CS[C@@H](CO)O2)C=C1	MT-4	RF	-	>100 µg/mL

The first 6 rows once more:

SMILES,cell line,strain or isolate,changes,result
N#CC1=C[C@@H](n2cnc3c(=O)[nH]cnc32)O[C@H]1CO,PBMC,-,-,50 µM
Nc1ccn([C@H]2C=C(F)[C@@H](CO)O2)c(=O)n1,PBMC,-,-,0.94 µM
N#CC1=C[C@@H](n2ccc(N)nc2=O)O[C@H]1CO,PBMC,-,-,>100 µM
CNc1n[nH]c2ccc(CN3C(=O)N(Cc4ccc5[nH]nc(NC)c5c4)[C@H](Cc4ccccc4)[C@H](O)[C@@H](O)[C@H]3Cc3ccccc3)cc12,MT-2,RF,-,<0.0279 µM
COC[C@@H](c1ccc(C(F)(F)F)cc1)N1CCN(C2(C)CCN(C(=O)c3c(C)ncnc3C)CC2)C[C@@H]1C,TZM-bl,S,G514V V535M,0.0052 µM
NC1=NS(=O)(=O)N(Cc2ccccc2)c2c1ncn2[C@@H]1CS[C@@H](CO)O1,MT-4,RF,-,>100 µg/mL